Results on two molecules are retold here after paper doi:10.1101/2025.02.16.638509 (bioRxiv, 2025).

Usually Kd stands for the constant that tells how readily two partners part at equilibrium. A higher Kd goes with weaker binding.

Test [1] concerns the target T1, biotinylated Tom70 ([…]), AVI-tagged (human, biotin (AVI-tag, BirA co-expression)).
T1 construct: also called biotin-Tom70; immobilized Tom70
The test is described as follows: SPR. Conditions: both partners purified.

Test [2] deals with hTom70 ([…]) lacking the transmembrane domain (human). The test can be described thus: fluorescence polarisation. Conditions: both partners purified. (In fluorescence polarisation assays a small probe gives low polarisation when free and higher when bound to something large.)

B1: refolded WT Orf9b (apo-homodimer) (natural protein)
chain: not shown
For B1, in test [1], the equilibrium dissociation constant (Kd) is 190 ± 1 nM; the “koff, fold slower than that of the Orf9b peptide” value is ~10 fold slower than the Orf9b peptide; the “kon, fold slower than that of the Orf9b peptide” value is ~3 times slower than the Orf9b peptide.

B2: Orf9b Δ91–97 (domain or fragment)
chain: not shown
With B2, the binding result in test [2] is recorded as “binds”.
